Compound potency records, mixed from different reports. Data source: NIAID ChemDB in PubChem.

Common to all: target-level tests

Blank or dashed fields: not listed here. Lines come from different laboratories, so protocols vary. ICn: concentration for n% inhibition.

smiles	target	strain	method	measure	organism	value
O=c1[nH]c(=O)n([C@H]2C[C@H](O)[C@@H](CO)O2)cc1O	Thymidine monophosphate kinase	-	-	IC50	Mycobacterium tuberculosis	270 µM
O=c1oc(CF)ns1	Proteasome	-	broth dilution / fluorescence	IC50	Mycobacterium tuberculosis	80.5 µM
CO[C@H]1O[C@@H](n2ccc(=O)[nH]c2=O)C[C@@H]1N=[N+]=[N-]	Thymidine monophosphate kinase	-	-	IC50	Mycobacterium tuberculosis	810 µM
CN(C[C@H](O)[C@H](O)[C@H](O)CO)c1[nH]c(=O)[nH]c(=O)c1[N+](=O)[O-]	Lumazine synthase	-	-	Ki	Mycobacterium tuberculosis	72.1 µM
O=Cc1sc(-c2cccnc2)nc1OCc1cnnn1-c1cc2ccc(O)cc2oc1=O	DNA gyrase	-	gel / absorbance	IC50	Mycobacterium tuberculosis	16.1 µM
NNC(=O)c1ccc(S(=O)(=O)NC[C@H]2O[C@@H](n3ccc(=O)[nH]c3=O)[C@H](O)[C@@H]2O)cc1	UDP-galactopyranose mutase	-	-	IC50	Mycobacterium tuberculosis	>100 µM
O=C(CCN1C(=O)/C(=C/c2ccc([N+](=O)[O-])cc2)SC1=S)NNC(=O)c1ccccc1	Pantothenate synthetase	-	absorbance	IC50	Mycobacterium tuberculosis	0.37 µM
CCCOc1ccc(N(C)c2cc(C)nc3ccc(Cl)cc23)cc1	FtsZ	H37Rv	-	IC90	Mycobacterium tuberculosis	15.7 µM
COC1=C(Br)CC2(OC=C1Br)ON=C(C(=O)NCCCOc1c(Br)cc(C(O)CN)cc1Br)[C@@H]2O	MYCOTHIOL-S-CONJUGATE AMIDASE	-	-	IC50	Mycobacterium tuberculosis	30 µM
N[C@@H]1CN(c2c(F)cc3c(=O)c(C(=O)O)cn([C@@H]4C[C@@H]4F)c3c2Cl)CC12CC2	Gyrase (V90A+V94D mutant)	-	-	IC50	Mycobacterium tuberculosis	144 µg/mL
Nc1ccc2cc(-n3nncc3COc3nc(-c4ccccn4)sc3C(=O)O)c(=O)oc2c1	DNA gyrase	-	gel / absorbance	IC50	Mycobacterium tuberculosis	0.8 µM
O=c1onc(/C=C/c2ccccc2)o1	Proteasome	-	broth dilution / fluorescence	IC50	Mycobacterium tuberculosis	54.5 µM
Nc1nc(N)c2cc(NC3c4ccccc4CCc4ccccc43)ccc2n1	DHFR	-	-	IC50	Mycobacterium avium	2 µM
O=C(O)c1sc(-c2ccncc2)nc1OCc1cnnn1-c1cc2ccc(O)cc2oc1=O	DNA gyrase	-	gel / absorbance	IC50	Mycobacterium tuberculosis	14.9 µM
Nc1nc(N)c2nc(CN3c4ccccc4C=Cc4ccccc43)cnc2n1	DHFR	-	-	IC50	Mycobacterium avium	0.012 µM
O=c1oc(CCc2ccccc2)ns1	Proteasome	-	broth dilution / fluorescence	IC50	Mycobacterium tuberculosis	>100 µM
COc1cc(/C=C2\SC(=S)N(CCC(=O)NNC(=O)c3ccccc3)C2=O)cc(OC)c1OC	Pantothenate synthetase	-	absorbance	IC50	Mycobacterium tuberculosis	1.39 µM
CCOc1ccc2cc(-n3nncc3COc3nc(-c4cccnc4)sc3C(=O)OC)c(=O)oc2c1	DNA gyrase	-	gel / absorbance	IC50	Mycobacterium tuberculosis	0.5 µM
O=C(N/N=C/c1cc([N+](=O)[O-])cc([N+](=O)[O-])c1O)c1ccc(S(=O)(=O)NC[C@H]2O[C@@H](n3ccc(=O)[nH]c3=O)[C@H](O)[C@@H]2O)cc1	UDP-galactopyranose mutase	-	-	IC50	Mycobacterium tuberculosis	6 µM
Nc1nc(N)c2cc(CN3c4ccccc4C=Cc4ccccc43)ccc2n1	DHFR	-	-	IC50	Mycobacterium avium	0.053 µM
O=Cc1sc(-c2ccccn2)nc1OCc1cnnn1-c1cc2ccc(O)cc2oc1=O	DNA gyrase	-	gel / absorbance	IC50	Mycobacterium tuberculosis	>25 µM
Cc1cn([C@H]2C[C@H](N=[N+]=[N-])[C@@H](CO)O2)c(=O)[nH]c1=O	Thymidine monophosphate kinase	-	-	IC50	Mycobacterium tuberculosis	28 µM
COc1cnc2ccc(=O)n(CCN3CCC(NCc4cc5c(cn4)OCCO5)CC3)c2c1	DNA gyrase	-	gel	IC50	Mycobacterium tuberculosis	2.8 µM
O=c1[nH]c(=O)n([C@H]2C[C@H](O)[C@@H](CO)O2)cc1Br	Thymidine monophosphate kinase	-	-	IC50	Mycobacterium tuberculosis	5 µM
O=c1oc(/C=C/c2cccnc2)ns1	Proteasome	-	broth dilution / fluorescence	IC50	Mycobacterium tuberculosis	1.35 µM
C[C@@H](N)[C@H](O)CCCCCCCCCCCCC(=O)CCCCCCCCC[C@@H](O)[C@@H](N)CO	MYCOTHIOL-S-CONJUGATE AMIDASE	-	-	IC50	Mycobacterium tuberculosis	100 µM
Nc1ccc2cc(-n3nncc3COc3nc(-c4cccnc4)sc3C(=O)O)c(=O)oc2c1	DNA gyrase	-	gel / absorbance	IC50	Mycobacterium tuberculosis	0.75 µM
O=c1[nH]c(=O)n([C@H]2C[C@H](O)[C@@H](CO)O2)cc1F	Thymidine monophosphate kinase	-	-	IC50	Mycobacterium tuberculosis	212 µM
CN1C(=O)[C@]23CC4=CC=C[C@H](O)[C@H]4N2C(=O)[C@@]1(CO)SS3	MYCOTHIOL-S-CONJUGATE AMIDASE	-	-	IC50	Mycobacterium tuberculosis	50 µM
O=c1[nH]c(=O)n([C@H]2C[C@H](O)[C@@H](CO)O2)cc1Cl	Thymidine monophosphate kinase	-	-	IC50	Mycobacterium tuberculosis	10 µM
O=c1oc(/C=C/c2c[nH]c3ccccc23)ns1	Proteasome	-	broth dilution / fluorescence	IC50	Mycobacterium tuberculosis	1.2 µM
O=C(CCN1C(=O)/C(=C/c2ccc([N+](=O)[O-])cc2)SC1=S)NNC(=O)c1cccc2ccccc12	Pantothenate synthetase	-	absorbance	IC50	Mycobacterium tuberculosis	1.4 µM
CCc1cn([C@H]2C[C@H](O)[C@@H](CO)O2)c(=O)[nH]c1=O	Thymidine monophosphate kinase	-	-	IC50	Mycobacterium tuberculosis	1140 µM

Repeating the first 2 entries:

smiles,target,strain,method,measure,organism,value
O=c1[nH]c(=O)n([C@H]2C[C@H](O)[C@@H](CO)O2)cc1O,Thymidine monophosphate kinase,-,-,IC50,Mycobacterium tuberculosis,270 µM
O=c1oc(CF)ns1,Proteasome,-,broth dilution / fluorescence,IC50,Mycobacterium tuberculosis,80.5 µM